Pooled drug test results. Numbers come from NIAID ChemDB, via PubChem.

All rows: whole-cell or culture tests; species: Mycobacterium tuberculosis

MIC50, MIC90 and the like: level of inhibition, or share of isolates inhibited. MIC bound comes from a single tested concentration. ECn: concentration that inhibits the pathogen or its effect by n%. Lines come from different laboratories, so protocols vary. Blank or dashed fields: not listed here. Two numbers with a dash give a range or band. Percent inhibition refers to the dose given; in toxicity tests it is the harm to the cells.

compound	dose	method	endpoint	cells	strain or isolate	result
CCCn1c(O)c(N=NC(=O)c2ccncc2)c2ccccc21	-	-	MIC	-	BOVIN	3.1 µg/mL
COC(=O)c1cc2c(o1)C(=O)c1c(nc3ccccc3c1C)C2=O	-	-	MIC	-	H37Rv	19.5 µM
N#Cc1nc(/C=C/c2ccc3c(c2)OCO3)cnc1N	-	BACTEC	MIC	-	H37Rv	≥12.5 µg/mL
CCCCOc1ccc(NC(=S)Nc2ccc(OCCCC)cc2)cc1	-	-	MIC	-	H37Ra	0.1–0.5 µg/mL
CCCCCCCCS(=O)(=O)CC(=O)NCC(=O)O	-	-	MIC	-	H37Rv	>25 µg/mL
CC(C)CCOc1ccc(NC(=S)Nc2ccc(OCCC(C)C)cc2)cc1	-	-	MIC	-	Erdman	<1 µg/mL
NC(=Nc1ccc2ccc3cccnc3c2n1)c1ccccn1	-	-	MIC	-	H37Rv	4 µg/mL
O=[N+]([O-])c1cc2ncccc2c2ncccc12	-	-	MIC	-	ETA-R	>12.5 µg/mL
CC(C)COc1ccc(NC(=S)Nc2ccc(-c3ccccn3)cc2)cc1	-	-	MIC	-	H37RV (TB-1 -R)	>50 µg/mL
O=c1nc(N2CCC(c3ccccc3)CC2)sc2c([N+](=O)[O-])cc(C(F)(F)F)cc12	-	-	MIC	-	2745/09 MDR	≤0.015 µg/mL
S=C(S)Nc1ccc(Cl)cc1	-	-	MIC	-	RMP-R	12.5 µg/mL
CCN1C(NNC(=O)c2cccnc2)=NS(=O)(=O)c2ccccc21	-	-	MIC	-	Clinical isolates drug-sensitive	>16 µg/mL
O=C1c2cc(Cl)nnc2Oc2ccc(Cl)cc2N1CC1CCCCC1	-	BACTEC	EC50	-	H37Rv	<12.5 µg/mL
COc1ccc2cc1Oc1ccc(cc1)CCCOC(=O)CC2	-	resazurin	EC50	-	H37Rv	>100 µg/mL
O=C1C=C(NCCO)c2nccc3c2c1nc1ccccc13	-	-	MIC	-	H37Rv	1.3 µM
O=Cc1ccc(C2=CC(=O)c3ccccc3C2=O)o1	-	resazurin	MIC90	-	H37Rv	>6.25 µg/mL
CC(C)(C)OC(=O)NCCNC1=CC(=O)c2nc3ccccc3c3ccnc1c23	-	-	MIC	-	H37Rv	2 µM
O=C1C(=Cc2ccc([N+](=O)[O-])o2)C(=O)N(CCc2ccccc2)S(=O)(=O)N1CCc1ccccc1	-	BACTEC	MIC	-	H37Rv	≥12.5 µg/mL
CO[C@H]1/C=C/O[C@@]2(C)Oc3c(C)c(O)c4c(O)c(c(/C=N/N5CCN(C)CC5)c(O)c4c3C2=O)NC(=O)/C(C)=C\C=C\[C@H](C)[C@H](O)[C@@H](C)[C@@H](O)[C@@H](C)[C@H](OC(C)=O)[C@@H]1C	-	fluorescence	MIC	-	H37Rv	0.01 µM
O=C(NNC1=NS(=O)(=O)c2ccccc2N1c1ccccc1)c1cnccn1	-	-	MIC	-	Clinical isolates drug-resistant	8–16 µg/mL
CCS(=O)C1=CC(=O)c2nc3ccccc3c3ccnc1c23	-	-	MIC	-	H37Rv	>20 µM
CC1(C)S[C@@H]2[C@H](NC(=O)[C@H](N)c3ccc(O)cc3)C(=O)N2[C@H]1C(=O)O	-	MTT	MIC	-	H37Rv	128 µM
CCCCCCN1C(=O)c2ccnnc2Oc2cc(C)ccc21	-	BACTEC	EC50	-	H37Rv	>12.5 µg/mL
C/C(=N\NC(=O)c1ccncc1)c1cccc(C(F)(F)F)c1	-	-	MIC	-	6 PI	>20 µg/mL
CCn1cc(C(=O)O)c(=O)c2cc(F)c(N3CCN(C)CC3)cc21	-	-	MIC	-	36 strains	0.3–2.5 µg/mL
Nc1nc(N)c(N=Nc2ccc(S(=O)(=O)c3ccc(N=Nc4c(N)nc(N)nc4N)cc3)cc2)c(N)n1	12.5 µg/mL	BACTEC	inhibition	-	H37Rv	-40%
Cc1cccc(C(N)=Nc2nc(-c3ccccn3)cc3ccccc23)c1	-	-	MIC	-	H37Rv	0.25 µg/mL
O=C(N=Nc1c(O)n(CO)c2ccccc12)c1ccncc1	-	-	MIC	-	Human sensitive isolate	3 µg/mL
CN1C(NNC(=O)c2cccnc2)=NS(=O)(=O)c2ccccc21	-	-	MIC	-	Clinical isolates drug-resistant	>16 µg/mL
CCCCCCCCCCCCCC1(C)SC(=O)C(C)=C1O	-	-	MIC	-	H37Rv	1000 µM
O=c1c2ccccc2c2ccccc2c(=O)n1-c1ccc2c(c1)Cc1cc(-n3c(=O)c4ccccc4c4ccccc4c3=O)ccc1-2	-	BACTEC	MIC bound	-	H37Rv	>12.5 µg/mL
C/C(=N\NC(=O)c1ccncc1)c1cccc(Cl)c1	-	-	MIC	-	16PI	>20 µg/mL
CSc1nc(NC2OC(COC(C)=O)C(OC(C)=O)C(OC(C)=O)C2OC(C)=O)c(N=CC=Nc2c(NC3OC(COC(C)=O)C(OC(C)=O)C(OC(C)=O)C3OC(C)=O)nc(SC)n(C)c2=O)c(=O)n1C	6.25 µg/mL	resazurin	inhibition	-	H37Rv	8%
CN[C@@H]1[C@@H](O)C(O[C@@H]2[C@@H](O)[C@H](OC3O[C@H](CN)[C@@H](O)[C@H](O)[C@H]3O)[C@@H](N)C[C@H]2NC(=O)[C@@H](O)CN)OC[C@]1(C)O	-	-	MIC	-	OR102	3.13 µg/mL
Cc1ccc(NC(=O)CSc2nnc(-c3ccc4ncccc4c3)o2)cc1	-	agar	MIC	-	H37Rv	250 µg/mL
CN1C(NNC(=O)c2cnccn2)=NS(=O)(=O)c2ccc(Cl)cc21	-	-	MIC	-	Clinical isolates drug-sensitive	>16 µg/mL
COc1cc(-c2c(C)oc(C)c2C(C)=O)ccc1OCc1ccccc1	-	BACTEC	MIC bound	-	H37Rv	>12.5 µg/mL
CNc1cc(F)cc2c1[nH]c1ccc(-c3cccc(CC(=O)O)c3)cc12	-	resazurin	MIC	-	H37Rv	2 µg/mL
CC(=O)c1ccc(C2=CC(=O)c3ccccc3C2=O)nc1	-	resazurin	MIC90	-	H37Rv	3.13 µg/mL
CC(C)=CCC/C(C)=C/C1(C)SC(=O)C(C)=C1O	-	-	MIC	-	H37Rv	>1000 µM
CCCCCCN1C(=O)c2ccnnc2Oc2ccccc21	12.5 µg/mL	BACTEC	inhibition	-	H37Rv	5%
CC(=O)c1cncc(C2=CC(=O)c3ccccc3C2=O)n1	-	resazurin	MIC90	-	H37Rv	>6.25 µg/mL
CCCCCCCCCN1C(=O)c2cc(Cl)nnc2Oc2ccc(Cl)cc21	12.5 µg/mL	BACTEC	inhibition	-	H37Rv	63%
CCCSc1ccc(NC(=S)Nc2ccc(SCCC)cc2)cc1	-	-	MIC	-	H37Ra	<0.1 µg/mL
Cc1ccc2c(N=Nc3ccc(C(=N)N)cc3)ccc(O)c2n1	6.25 µg/mL	-	inhibition	-	H37Rv	-8%
CCN(CC)Cc1cc(N(c2cc(C)nc3cc(Cl)ccc23)S(=O)(=O)c2ccc(Cl)cc2Cl)ccc1O	-	agar	MIC	-	H37Rv	6.25 µg/mL
CCCCCCCCCCC1(C)SC(=O)C(C)=C1O	-	-	MIC	-	H37Rv	1000 µM
O=[n+]1ccn([O-])c2ccccc21	-	BACTEC	MIC bound	-	H37Rv	>12.5 µg/mL
COc1ccc2nc(NC(=O)CSc3nnc(-c4ccc5ncccc5c4)o3)sc2c1	-	agar	MIC	-	H37Rv	6.25 µg/mL
CC(=O)N1CCNC(C2=CC(=O)c3ccccc3C2=O)C1	-	resazurin	MIC90	-	H37Rv	3.13 µg/mL
CO[C@H]1CCC[C@H]2C1=C(C(=O)O)N1C(=O)[C@H]([C@@H](C)O)[C@@H]21	-	resazurin	MIC	-	H37Rv	5 µM
CC(=O)c1sc(C2=CC(=O)c3ccccc3C2=O)cc1C	-	resazurin	MIC90	-	H37Rv	>6.25 µg/mL
NC1(N)ON(c2ccc(C=O)cc2)C(c2ccc([N+](=O)[O-])cc2)S1	-	resazurin	MIC bound	-	H37Rv	>6.25 µg/mL
CC1=C(O)C(C)(CC(C)C)SC1=O	-	-	MIC	-	H37Rv	1000 µM
CN1C(NNC(=O)c2ccncc2)=NS(=O)(=O)c2ccccc21	-	-	MIC	-	Clinical isolates drug-sensitive	>16 µg/mL
C[C@@H](O)[C@H]1C(=O)N2C(C(=O)O)=C([C@H]3CCCO3)S[C@H]12	-	luminescence	MIC50	THP-1	H37Rv	1.85 µM
CO[C@@]12[C@H](COC(N)=O)C3=C(C(=O)C(C)=C(N)C3=O)N1C[C@H]1[C@@H]2N1C	-	-	MIC	-	PAS-R	1.6 µg/mL
CC1(C)C=Cc2c(ccc3c2O[C@H](c2ccc(O)cc2)CC3)O1	-	-	MIC	-	H37Rv	50 µg/mL
c1cc2ccc3ccc[n+]4c3c2[n+](c1)CCC4	12.5 µg/mL	BACTEC	inhibition	-	H37Rv	3%
CCCCCN1C(=O)c2cc(Cl)nnc2Oc2ccccc21	-	BACTEC	EC50	-	H37Rv	>12.5 µg/mL
C=C1CCCC2[C@@]1(C)CC[C@H](C)[C@@]2(C)Cc1cc(O)ccc1O	-	BACTEC	MIC	-	H37Rv	≥12.5 µg/mL
CCN(CC)Cc1cc(N(c2cc(C)nc3cc(Cl)ccc23)S(=O)(=O)c2ccc(Cl)s2)ccc1O	-	agar	MIC	-	H37Rv	6.25 µg/mL
COc1cc2c(cc1OC)-c1c3c(cc4c1[C@@H](C2)N(C)CC4)OCO3	12.5 µg/mL	BACTEC	inhibition	-	H37Rv	44%
C/C(=N\NC(=O)c1ccncc1)c1ccc(Cl)c(Cl)c1	-	-	MIC	-	16PI	>20 µg/mL
CCCCSc1ccc(NC(=S)Nc2ccc(SCCCC)cc2)cc1	-	-	MIC	-	H37Ra	<0.1 µg/mL
C[C@H]1[C@H](c2ccccc2)OC(c2ccccc2)N1C	12.5 µg/mL	BACTEC	inhibition	-	H37Rv	0%
CSC1C(=O)c2nccc3c2c(nc2ccccc23)C1CCNC(C)=O	-	-	MIC	-	H37Rv	>17 µM
COc1ccc(OC)c2c1C(=O)C=CC2=O	-	resazurin	MIC90	-	H37Rv	>6.25 µg/mL
CCCCCN1C(=O)c2ccnnc2Oc2cc(C)ccc21	-	BACTEC	EC50	-	H37Rv	>12.5 µg/mL
CC(C)COc1ccc(NC(=S)Nc2ccc(OCC(C)C)cc2)cc1	-	-	MIC	-	H37Ra	0.5 µg/mL
O=C1c2scnc2-c2nccc3c2c1nc1ccccc13	-	-	MIC	-	H37Rv	10.7 µM
NNC(=O)c1ccncc1	-	-	MIC	-	2230	>4 µg/mL
CC(C)(C)c1ccc(NC(=S)Nc2ccc(C(C)(C)C)cc2)cc1	-	-	MIC	-	H37Ra	>20 µg/mL
CN1C(NC(=O)c2cnccn2)=NS(=O)(=O)c2cc(Cl)ccc21	-	-	MIC	-	Clinical isolates drug-resistant	>16 µg/mL
CCN(CC)Cc1cc(N(c2cc(C)nc3cc(Cl)ccc23)S(=O)(=O)c2ccc(Cl)cc2)ccc1O	-	agar	MIC	-	H37Rv	6.25 µg/mL
CC1=C(O)C(C)(C2CCCC2)SC1=O	-	-	MIC	-	H37Rv	1000 µM
CCCCCCCCCCCCCCCCNC(=S)NCCCC(=O)OC	-	-	MIC	-	H37Ra	>20 µg/mL
NC(=Nc1nc(-c2ccccn2)cc2ccccc12)c1ccccc1	-	-	MIC	-	H37Rv	0.25 µg/mL
COc1c(O)c2c(c(C)c1C(=O)C=C(C)C)Oc1c(C=O)c(O)cc(C)c1C(=O)O2	-	-	MIC	-	-	49.9 µg/mL
N#C/C(=N\NC(=O)c1cccnc1)c1ccc(Cl)cc1	-	BACTEC	MIC bound	-	H37Rv	>12.5 µg/mL
O=C(NC1=NS(=O)(=O)c2ccccc2N1c1ccccc1)c1ccc(Cl)nc1	-	-	MIC	-	Clinical isolates drug-sensitive	>16 µg/mL
CCC(C)C1(C)SC(=O)C(C)=C1O	-	-	MIC	-	H37Rv	500 µM
O=C(CSc1nnc(-c2ccc3ncccc3c2)o1)Nc1ccc(I)cc1	-	agar	MIC	-	H37Rv	200 µg/mL
O=C(NCCNC1=CC(=O)c2nc3ccccc3c3ccnc1c23)c1cnccn1	-	-	MIC	-	H37Rv	2 µM
Nc1nc2cc(Cl)ccc2n1N	-	BACTEC	MIC bound	-	H37Rv	>12.5 µg/mL
O=C(CSc1nnc(-c2ccc3ncccc3c2)o1)Nc1nc2ccccc2s1	-	agar	MIC	-	H37Rv	250 µg/mL
Cc1nc2c([N+](=O)[O-])c(N3CCCCC3)c([N+](=O)[O-])cc2[nH]1	-	resazurin	MIC bound	-	H37Rv	>6.25 µg/mL
CC(=O)N1c2ccccc2CC1C1=CC(=O)c2ccccc2C1=O	-	resazurin	MIC90	-	H37Rv	>6.25 µg/mL
Cc1c(/C=N/NC(=O)CCCC(=O)N/N=C/c2c(C)n(C)n(-c3ccccc3)c2=O)c(=O)n(-c2ccccc2)n1C	-	BACTEC	MIC bound	-	H37Rv	>12.5 µg/mL
CCN1C(NNC(=O)c2ccncc2)=NS(=O)(=O)c2ccccc21	-	-	MIC	-	H37Rv (ATCC 27294)	>16 µg/mL

The last 8 rows once more:

O=C(CSc1nnc(-c2ccc3ncccc3c2)o1)Nc1ccc(I)cc1 ; method: agar ; endpoint: MIC ; strain or isolate: H37Rv ; result: 200 µg/mL
O=C(NCCNC1=CC(=O)c2nc3ccccc3c3ccnc1c23)c1cnccn1 ; endpoint: MIC ; strain or isolate: H37Rv ; result: 2 µM
Nc1nc2cc(Cl)ccc2n1N ; method: BACTEC ; endpoint: MIC bound ; strain or isolate: H37Rv ; result: >12.5 µg/mL
O=C(CSc1nnc(-c2ccc3ncccc3c2)o1)Nc1nc2ccccc2s1 ; method: agar ; endpoint: MIC ; strain or isolate: H37Rv ; result: 250 µg/mL
Cc1nc2c([N+](=O)[O-])c(N3CCCCC3)c([N+](=O)[O-])cc2[nH]1 ; method: resazurin ; endpoint: MIC bound ; strain or isolate: H37Rv ; result: >6.25 µg/mL
CC(=O)N1c2ccccc2CC1C1=CC(=O)c2ccccc2C1=O ; method: resazurin ; endpoint: MIC90 ; strain or isolate: H37Rv ; result: >6.25 µg/mL
Cc1c(/C=N/NC(=O)CCCC(=O)N/N=C/c2c(C)n(C)n(-c3ccccc3)c2=O)c(=O)n(-c2ccccc2)n1C ; method: BACTEC ; endpoint: MIC bound ; strain or isolate: H37Rv ; result: >12.5 µg/mL
CCN1C(NNC(=O)c2ccncc2)=NS(=O)(=O)c2ccccc21 ; endpoint: MIC ; strain or isolate: H37Rv (ATCC 27294) ; result: >16 µg/mL